First the molecules themselves.
B1: BD57-0173 (protein)
chain 1: QVQLVQSGAEVKKPGASVKVSCRASHYTFSTYTITWVRQAPGRGLEWLGWISAYNGDTKYSQKLQGRVSMTTDTSTNTAYMELRSLRSDDTAVYYCASDFGDAGLISGLDVWGQGTTVTVSS
chain 2: DIQMTQSPSSLSASVGDRVTVTCRASQSIRTYLHWYQQKPGKAPKLLIFAASSLQSGVPSRFSGSGSGTDFTLTISSLQPEDFATYYCQQSYSSPHTFGPGTKVDIK
B2: BD57-0161 (protein)
chain 1: QVQLVQSGAEVKKPGSSVKVSCKASGGIFSGYGMNWVRQAPGQGLEWMGGIIPIFGAPNYAQKFQGRVTITADESTSTAYIDLSSLRSEDTAVYYCARDPVGSNGNDALDIWGQGTMVTVSS
chain 2: SYVLTQPPSVSVAPGKTARLTCGGNNIGSTSVHWYQQKPGQAPVLVISYDSDRPSGIPERFSGSNSGNTATLTISRVEAGDEADYYCQVWDSRSDHRVFGGGTKLTVL
B3: BD57-0175 (protein)
chain 1: EVRLVQSGAEVKKPGDSLKISCQGLGYTFSNYWIGWVRQMSGKGLEWMGIIYNTDSDVRYNPSFQGQVTISADNSISTAYLQWTSLKASDSAMYYCARQHTNGWWVGDYWGQGTLVTVSS
chain 2: EIVMTQSPTALSVSPGERATLSCRASQSVISNLAWFQQKPGQAPRLLIYGASTRATGIPARFSGSGSGTEFTLTISSLQSEDFAVYYCHQYNNWPPWTFGQGTQVEMK
B4: BD57-0145 (protein)
chain 1: QVTLRESGPALVKPTQTLTLTCAFSGFSLYNAGMCVSWIRQPPGRALEWLARIDWDDDEFYSTSLRTRLTISKDTSKNQVVLTVTNMDPGDTATYYCARTAIGGFNWYFDYWGPGTLVTVSS
chain 2: QSVLTQPPSVSAAPGQQVTISCSGSSSNIGTHYASWYQQLPGTAPKLLIYDNNKRPSGIPDRFSGSKSGTSATLGITGLQSGDEADYYCAAWDDSVSAGVFGGGTKLTVL
B5: BD57-0151 (protein)
chain 1: EVQVVESGGGLVQPGGSLRLSCAASGFTFSSYDMHWVRQATGKGLEWVSAIGTSGDTYYAGSVKGRFTISRENAKNSLYLQMNTLRAGDTAVYYCARGGISSWYWYFDLWGRGTLVTVSS
chain 2: DIPMTQSPSSLSASVGDRVTITCRASQSITTYLNWYQQKPGKAPKLLIYAASSLQSGVPSRFSGSGSGTDFTLTISSLQPEDFATYYCQQGYSMPEVTFGQGTRLEMK
B6: BD57-0169 (protein)
chain 1: QVQLQESGPGLVKPSQTLSLTCTVSGGSISSGGYYWSWIRQHPGKGLEWIGHIFYSGSTNYNPSLRSRVSISVDTSKSQFSLKLTSVTAADTAVYYCARQSGGDRYCGSVYCHVFDFWGQGTLVTVSS
chain 2: SYELTQALSVSVALGQTARITCGGNNIGSYNVQWYQQKPGQAPVLVIHRDYNRPSGIPERFSGSNSGNTATLTISRAQAGDEADYYCQVWDSSAAVFGGGTKLTVL
B7: BD57-0163 (protein)
chain 1: QVQLQQSGPGLVQPSQTLSLTCAISGDSVSSTSAAWNWIRQSPSRGLEWLGRTYYRSKWYTDYAVSVKGRIIINPDTSKNQFSLQANSVTPEDTAVYYCTRERGDGFDYWGQGALVTVSS
chain 2: EIVMTQSPATLSVSPGERATLSCRASESVSNNLAWYQQKPGQAPRLLIYGASTRATGIPARFSGSGSGTEFTLTISSLQSEDFAVYYCQQYSNWLLFTFGPGTKVDIK
B8: BD57-0138 (protein)
chain 1: QVQLVQSGAELKKPGSSVKVSCKASGGSFRSKSITWVRQAPGQGLEWMGKIIPILGVASYAEKFEGRVTITADKSTGTAYMELTSLRSEDTAMFYCATVRGYSGSGSNDYFDNWGLGTLVTVSS
chain 2: QSVLTQPPSVSGAPGQRVTISCTGSNSNIGAGYDIHWYRQLPGTAPKLLISVNTNRPSGVPDRFSGSKSGTSASLAISGLQAEDEADYYCQSYDSSLSESVFGGGTKLTVL
B9: BD57-0153 (protein)
chain 1: EVQLVESGGGLVQPGGSLRLSCAASGFTVSRNFMTWVRQAPGKGLEWVSLIHSGGSTFYADSVKGRFTISRHTSKNTVYLQMSSLRPEDTALYYCARSEWLRGSFDIWGQGTTVTVSS
chain 2: NFMLTQPHSVSESPGKTVTISCTGSSGSIASNYVQWYQQRPGSAPTTLIYEDNQRPSGVPDRFSGSIDSSSNSASLTISGLKSEDEADYYCQSYDGNNLKWVFGGGTKLTVL
B10: BD57-0141 (protein)
chain 1: EVELVESGGGLVQPGGSLRLSCAAFGFTFSTYWMTWVRQTPGKGLEWVANIKQDGSEKYYVDSVKGRFTISRDNAKNSLYLQMNSLRAEDTAVYYCARELGLLWFGELSSGRGTLVTVSS
chain 2: DIQMTQSPSSLSASIGDRVTITCRASQGISNSLAWYQQKPGKAPYVLLYAVSTLESGVPSRFSGSGSGTVYTLTISSLQPEDFATYYCLQYFSTPRTFGQGTKVEIK
B11: BD57-0170 (protein)
chain 1: QVQLVQSGAEVKKPGSSVKVSCKASGGTFITYAINWVRQAPGQGLEWMGGITPIVNIGNYAQKFQGRVTITADKSTTTVYLELSRLRSEDTAVYYCARLREDITVVPADEPNVFNVWGQGTMITVSS
chain 2: DIVMTQSPDSLAVSLGERATINCKSSQSLLHSFNNKNYLAWYQQKPGQPPKLLIYWASTRESGVPDRFSGSGSGTDFTLTISSLQAEDVALYYCQQYYTSPMYTFGQGTKLEIK
B12: BD57-0160 (protein)
chain 1: QVQLVESGGGVVQPGRSLRLSCEVSGFSFSTYAMHWVRQAPGKGLEWVAVISYAGTHKYYADSVKGRFTISRDNSKNTLYVQMTSLRAEDTAIYYCARDSGDGITGTTGWFDPWGHGTLVTVSA
chain 2: SYVLTQPPSVSVAPGQTARVTCEEDNIGSKSVHWYQQKPGQAPVLVVYDDSDRPSGIPARFSGSNSGNTATLTISRVEAGDEADYYCQVWHFSGDPFVFGTGTKVTVL

Human monoclonal antibodies against the spike receptor-binding domain (heavy:light variable regions). IC50 against pseudoviruses bearing the spike of naturally observed variants; lower = stronger; >10 µg/ml means not reached at the top dose. No active / inactive call. The stated detection limit is 0.0005 µg/ml; values near or below 0.001 µg/ml lie at the floor of the assay. A value given as a limit tells only on which side of the number the result lay.

In the first experiment the target is SARS-CoV-2 Omicron BA.1 spike pseudovirus. The experiment can be described thus: pseudovirus neutralization IC50; higher = weaker neutralization. As to the method: (§1)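 Single-round VSV luciferase pseudovirus mixed with antibody dilutions for 1 h and put on Huh-7 cells for about a day; IC50 from the dose curve.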
For the molecule B1, the “pseudovirus neutralization IC50” value was found to be 2.22 µg/mL.
For B2, the “pseudovirus neutralization IC50” value is 0.141 µg/mL.
The same measure, in the same setting: the same measure for B3: over 10 µg/mL; for B4: 0.212 µg/mL.
The same measure, in the same setting: the same measure for B5: over 10 µg/mL; for B6: over 10 µg/mL; for B7: over 10 µg/mL.
The same measure, in the same setting: for B8 the value was 0.0184 µg/mL; for B9, 0.665 µg/mL; for B10, over 10 µg/mL.
As to B11, the “pseudovirus neutralization IC50” value came to 0.000736 µg/mL.
The same measure, in the same setting: for B12 the value was 4.91 µg/mL.

Another experiment has as its target SARS-CoV-2 Omicron BA.2 spike pseudovirus. The experiment is described as above. As to the method:
as §1
As to B1, the “pseudovirus neutralization IC50” value stood at 2.62 µg/mL.
B2: the “pseudovirus neutralization IC50” value was found to be 0.0931 µg/mL.
With B3, the “pseudovirus neutralization IC50” value came to 2.08 µg/mL.
On the same count and under the same terms, the same measure for B4: 0.000621 µg/mL.
As for B5, the “pseudovirus neutralization IC50” value is over 10 µg/mL.
In the case of B6, the “pseudovirus neutralization IC50” value turned out to be 0.392 µg/mL.
Take B7: the “pseudovirus neutralization IC50” value was over 10 µg/mL.
The same measure, in the same setting: the same measure for B8: 0.0299 µg/mL; for B9: 0.503 µg/mL.
Same read-out and setting: the same measure for B10: over 10 µg/mL; for B11: 0.000746 µg/mL.
On to B12, for which the “pseudovirus neutralization IC50” value worked out at 5.1 µg/mL.

The target of the next experiment is SARS-CoV-2 Omicron BA.2.75 spike pseudovirus. The experiment is described as above. On the procedure:
as §1
In the case of B1, the “pseudovirus neutralization IC50” value was found to be 0.743 µg/mL.
As to B2, the “pseudovirus neutralization IC50” value turned out to be 0.0796 µg/mL.
The same measure, in the same setting: the same measure for B3: over 10 µg/mL; for B4: 0.0585 µg/mL.
Turning to B5, the “pseudovirus neutralization IC50” value is over 10 µg/mL.
As to B6, the “pseudovirus neutralization IC50” value was over 10 µg/mL.
On to B7, for which the “pseudovirus neutralization IC50” value was over 10 µg/mL.
On the same count and under the same terms, the same measure for B8: 0.0153 µg/mL; for B9: 0.41 µg/mL.
Still for that read-out and setting: for B10 the value was over 10 µg/mL.
For B11, the “pseudovirus neutralization IC50” value was 0.000989 µg/mL.
The same measure, in the same setting: for B12 the value was 3.17 µg/mL.

For another experiment, the target named is SARS-CoV-2 Omicron BA.5 spike pseudovirus. The experiment is described as above. As to the method:
as §1
For the molecule B1, the “pseudovirus neutralization IC50” value stood at 4.24 µg/mL.
Still for that read-out and setting: the same measure for B2: 0.0978 µg/mL; for B3: 7.31 µg/mL.
On the same count and under the same terms, the same measure for B4: 0.000173 µg/mL; for B5: over 10 µg/mL.
With B6, the “pseudovirus neutralization IC50” value was 1.09 µg/mL.
The same measure, in the same setting: the same measure for B7: over 10 µg/mL; for B8: 1.16 µg/mL.
Regarding B9, the “pseudovirus neutralization IC50” value was 0.441 µg/mL.
Still for that read-out and setting: the same measure for B10: over 10 µg/mL; for B11: 0.000526 µg/mL; for B12: over 10 µg/mL.

A further experiment has as its target SARS-CoV-2 Omicron BQ.1.1 spike pseudovirus. The description is as above. As to the method: as §1
For B1, the “pseudovirus neutralization IC50” value was over 10 µg/mL.
Take B2: the “pseudovirus neutralization IC50” value is over 10 µg/mL.
For B3, the “pseudovirus neutralization IC50” value was over 10 µg/mL.
On the same count and under the same terms, the same measure for B4: over 10 µg/mL; for B5: over 10 µg/mL.
Same read-out and setting: for B6 the value was over 10 µg/mL; for B7, over 10 µg/mL; for B8, over 10 µg/mL.
Take B9: the “pseudovirus neutralization IC50” value was determined as 1.98 µg/mL.
As for B10, the “pseudovirus neutralization IC50” value is over 10 µg/mL.
Same read-out and setting: for B11 the value was 3.9 µg/mL; for B12, over 10 µg/mL.

Another experiment deals with SARS-CoV-2 Omicron XBB spike pseudovirus. The description is as above. As to the method: as §1
Consider B1, for which the “pseudovirus neutralization IC50” value was found to be 6.18 µg/mL.
For B2, the “pseudovirus neutralization IC50” value was found to be 2.25 µg/mL.
On the same count and under the same terms, the same measure for B3: over 10 µg/mL.
In the case of B4, the “pseudovirus neutralization IC50” value was over 10 µg/mL.
For the molecule B5, the “pseudovirus neutralization IC50” value is over 10 µg/mL.
On the same count and under the same terms, the same measure for B6: over 10 µg/mL; for B7: over 10 µg/mL; for B8: 2.84 µg/mL.
Consider B9, for which the “pseudovirus neutralization IC50” value came to 2 µg/mL.
The same measure, in the same setting: the same measure for B10: over 10 µg/mL; for B11: 0.107 µg/mL.
The same measure, in the same setting: the same measure for B12: over 10 µg/mL.

The next experiment has as its target SARS-CoV-2 early D614G spike pseudovirus. The description is as above. As to the method:
as §1
Turning to B1, the “pseudovirus neutralization IC50” value is 0.487 µg/mL.
As for B2, the “pseudovirus neutralization IC50” value turned out to be 0.102 µg/mL.
On the same count and under the same terms, for B3 the value was 0.00105 µg/mL; for B4, 0.000412 µg/mL; for B5, over 10 µg/mL.
Take B6: the “pseudovirus neutralization IC50” value worked out at 0.00116 µg/mL.
On to B7, for which the “pseudovirus neutralization IC50” value is over 10 µg/mL.
B8: the “pseudovirus neutralization IC50” value came to 0.107 µg/mL.
With B9, the “pseudovirus neutralization IC50” value came to 0.104 µg/mL.
On to B10, for which the “pseudovirus neutralization IC50” value came to 0.0123 µg/mL.
In the case of B11, the “pseudovirus neutralization IC50” value was determined as 0.000663 µg/mL.
For the molecule B12, the “pseudovirus neutralization IC50” value is over 10 µg/mL.
